Patent publication US20080058275, “Rna Interferases And Methods Of Use Thereof” (published 2008)

Target: (His)6MazE(L55A/L58A) (Escherichia coli) (UniProt P0AE72)
Experiment: EMSA
Conditions: 4 uM; no supershift with MazF; purified recombinant protein; protein details: N-terminal His6; label: 32P

## GCTCGTATCTACAATGTAGATTGATATATACTGTATCTACATATGATAGC (double strand) [mazEF promoter 50-bp]
  binding result: binds

For at least one entry, the source does not settle the construct or the ends of the probe.
